Compound potency records, mixed from different reports. Data source: NIAID ChemDB in PubChem.

An empty or dashed field is not shown. A number after MIC or MFC names an inhibition level or a share of isolates. Lines come from different laboratories, so protocols vary. ECn: concentration that inhibits the pathogen or its effect by n%. ICn is the concentration giving n% inhibition. Inhibition is in % at the dose shown (toxicity tests: loss of growth or viability). Fold resistance: result on the changed form divided by that on wild type.

smiles | mutations | read-out | read by | test | organism | dose | cells | protein | strain or isolate | value
Cc1ncc([N+](=O)[O-])n1CCO |  | inhibition |  | culture | Encephalitozoon intestinalis | 0.1 µg/mL | RK-13 |  |  | 17.1%
COc1ccc(CNc2nnc(NC(=O)c3cccc([N+](=O)[O-])c3)s2)cc1OC |  | IC50 |  | target | Human cytomegalovirus |  |  | Polymerase |  | >25 µM
O=C(NC(=O)c1c(F)cccc1F)Nc1cc(Cl)c(OC(F)(F)C(F)C(F)(F)F)cc1Cl |  | inhibition |  | culture | Vittaforma corneae | 2.5 µg/mL | RK-13 |  |  | 30.3%
CCCCCCCC/C=C/CCCCCCCC(=O)Nc1nnc(NCCc2c[nH]c3ccccc23)s1 |  | IC50 |  | target | Human cytomegalovirus |  |  | Polymerase |  | <25 µM
CCOC(=O)Nc1cc(NC(C)/C(=N/O)c2ccc(O)cc2)c([N+](=O)[O-])c(N)n1 |  | inhibition |  | culture | Encephalitozoon intestinalis | 1 µg/mL | RK-13 |  |  | 26.5%
Nc1nc2c(ncn2[C@H]2CC[C@@H](COP(=O)(O)OP(=O)(O)OP(=O)(O)O)O2)c(=O)[nH]1 | RT-N137T | fold resistance | nucleotide incorporation / radiometric | target | HIV |  |  | Reverse transcriptase |  | 44
CCO/N=C/c1ccc(OCCC2CCN(c3ccc(C)nn3)CC2)cc1 |  | EC50 | neutral red | culture | Rhinovirus |  | KB |  | Norman (ICAM-1 receptor group 5) | 0.005 µM
COc1cc(C[C@H](C)[C@H](C)Cc2ccc(O)c(O)c2)ccc1O |  | MIC50 | broth dilution | culture | Candida albicans |  |  |  | CCC 125-2000 | 62.5 µg/mL
CCOC(=O)Nc1cc2c(c(N)n1)N=C(c1cccc(OC)c1)CO2 |  | inhibition |  | culture | Encephalitozoon intestinalis | 0.1 µg/mL | RK-13 |  |  | 59.1%
CCCCCCCC/C=C/CCCCCCCC(=O)Nc1nnc(NCCNC(C)=O)s1 |  | IC50 |  | target | Human cytomegalovirus |  |  | Polymerase |  | <25 µM
CCOC(=O)Nc1cc2oc(=O)c(-c3ccccc3)nc2c(N)n1 |  | inhibition |  | culture | Encephalitozoon intestinalis | 0.1 µg/mL | RK-13 |  |  | 26.5%
CC(C)=CCOc1cc(NC(=S)c2ccoc2C)ccc1Cl | RT-N137Q | fold resistance | nucleotide incorporation / radiometric | target | HIV |  |  | Reverse transcriptase |  | 0.25
CCOc1ccc2ccccc2c1C(=O)Nc1nnc(NCc2ccco2)s1 |  | IC50 |  | target | Human cytomegalovirus |  |  | Polymerase |  | >25 µM
C#CC[C@@H](C(=O)N[C@H](/C=C/C(=O)OCC)C[C@@H]1CCNC1=O)n1cccc(NC(=O)c2cc(C)on2)c1=O |  | inhibition | cytopathic effect / XTT | culture | Rhinovirus | 0.117 µM | H1-HELA |  | Serotype 73 | 90%
O=C(Nc1nnc(NCCNc2ccccc2)s1)c1ccc(Cl)c(Cl)c1 |  | IC50 |  | target | Human cytomegalovirus |  |  | Polymerase |  | >25 µM
Cc1cn([C@@H]2O[C@H](CO[Si](C)(C)C(C)(C)C)C3(OS(=O)(=O)C=C3N)[C@H]2O[Si](C)(C)C(C)(C)C)c(=O)n(C)c1=O | RT-N137Y | IC50 | nucleotide incorporation / radiometric | target | HIV |  |  | Reverse transcriptase |  | 0.3 µM
O=C1Nc2ccc(Cl)cc2[C@@](C#CC2CC2)(C(F)(F)F)O1 |  | IC50 |  | host protein | Human |  |  | DNA polymerase beta |  | 314.2 µM
O=C(Nc1nnc(NCc2ccncc2)s1)c1cc2ccccc2s1 |  | IC50 |  | target | Human cytomegalovirus |  |  | Polymerase |  | >25 µM

For reference, 2 entries again:

smiles,mutations,read-out,read by,test,organism,dose,cells,protein,strain or isolate,value
Nc1nc2c(ncn2[C@H]2CC[C@@H](COP(=O)(O)OP(=O)(O)OP(=O)(O)O)O2)c(=O)[nH]1,RT-N137T,fold resistance,nucleotide incorporation / radiometric,target,HIV,,,Reverse transcriptase,,44
COc1ccc(CNc2nnc(NC(=O)c3cccc([N+](=O)[O-])c3)s2)cc1OC,,IC50,,target,Human cytomegalovirus,,,Polymerase,,>25 µM